Anti-infective test results gathered from many reports (values: NIAID ChemDB through PubChem).

All rows: growth or infection tests; agent: HIV-1; read-out: EC50

Neighbouring rows are from separate reports. Blank or dashed fields: not listed here. ECn is the concentration giving n% inhibition of infection, replication or growth. a–b is a range or a potency band.

compound | strain or isolate | cells | setting | mutations | value
COC(=O)C(=O)N1CCC[C@H]1C(=O)N[C@H](Cc1ccccc1)C(=O)N[C@@H](CC(N)=O)C(=O)N[C@@H](Cc1ccccc1)[C@H](O)C(=O)N1CCC[C@H]1C(=O)NC(C)(C)C |  |  |  |  | >100 µg/mL
COc1ccccc1NC(=O)c1ccccc1C(O)c1cccc([N+](=O)[O-])c1 | LAI | H9 |  |  | 7.1 µM
CC(C)c1c(CC2CCCCC2)nc(SCC(=O)c2ccccc2)[nH]c1=O |  | C8166 |  |  | 0.000025 µM
CCC[C@@]1(CCc2ccccc2)CC(O)=C([C@H](CC)c2cccc(NS(=O)(=O)c3ccc(C(F)(F)F)cn3)c2)C(=O)O1 | IIIB | MT-4 |  |  | 0.7 µM
CCc1c(CC2CCCCC2)nc(SCc2ccccc2)[nH]c1=O |  | C8166 |  |  | 0.5316 µM
COc1ccccc1NC(=O)c1ccccc1C(O)c1ccc(OCO)c(OCO)c1 | LAI | H9 |  |  | 12.9 µM
NC(=O)C[C@@H](N)C(N)=O | IIIB | CEM |  |  | 500 µM
O=C(N[C@H]1c2ccccc2C[C@H]1O)[C@H](Cc1ccccc1)C[C@H](O)CN1C(=O)N(Cc2cccc(F)c2)C[C@@H]1Cc1ccccc1 |  | MT-4 + MT4 |  |  | 2.2–10 µM
Cc1cc(C)cc(C[C@@H]2[C@H](O)[C@@H](O)[C@@H](Cc3ccccc3)N(Cc3ccc4[nH]nc(N)c4c3)C(=O)N2Cc2ccccc2)c1 | HXB2 |  |  |  | <0.1 µM
Cc1ccc(-c2c([C@H](OC(C)(C)C)C(=O)O)c(C)nc3ccccc23)cc1C |  | MT-4 |  |  | 0.039 µM
CNC(=O)CN | IIIB | CEM |  |  | 500 µM
COCc1nc(Nc2ccc(C#N)cc2)nc(Nc2c(C)cc(/C=C/C#N)cc2C)c1C(=O)N1CCCC(C(N)=O)C1 | L1001+K103N | MT4 CMV-EGFP |  |  | 0.603 µM
Nc1ccn([C@@H]2O[C@H](CO)C=C2F)c(=O)n1 |  |  |  | RT-M184V | 1.8 µM
CO[C@H]1C[C@@H](n2cnc3c(N)ncnc32)[C@H](O)[C@@H]1O | IIIB | CEM |  |  | >250 µg/mL
COCc1nc(Nc2ccc(C#N)cc2)nc(Nc2c(C)cc(/C=C/C#N)cc2C)c1C(=O)NCC1CCCO1 | L1001+K103N | MT4 CMV-EGFP |  |  | 0.055 µM
COC(=O)[C@H](C)NP(=O)(OC[C@H]1O[C@@H](n2cc(C)c(=O)[nH]c2=O)C[C@@H]1N=[N+]=[N-])Oc1ccccc1 | IIIB | CEM + CEM/0 |  |  | 0.055 µM
COc1cc(C)cc2c(-c3c(O)cc(O)c4c3C[C@H](C)N[C@H]4C)cc(-c3cc(-c4c(O)cc(O)c5c4C[C@H](C)N[C@H]5C)c4cc(C)cc(OC)c4c3O)c(O)c12 |  | CEM + CEM-SS |  |  | 5.8–9.5 µM
C=C1CN(S(=O)(=O)c2ccc(C)cc2)CCCN(Cc2ccccc2)CCCN(S(=O)(=O)c2ccc(C)cc2)C1 | AZT-resistant | MT-2 |  |  | 2 µM
COc1ccccc1C(=O)Nc1ccccc1C(O)c1ccc([N+](=O)[O-])cc1 | LAI | MT-4 |  |  | 26.6 µM
C#C[C@]1(COC(=O)CCCCCCCCCC)O[C@@H](n2cnc3c(N)nc(F)nc32)C[C@@H]1O | NL4-3 | U373-CD4-CXCR4 | pseudotyped | M184V | 0.009 µM
Cc1ccnc2c1NC(=O)c1cccnc1N2C1CC1 | IIIB | MT-4 |  |  | 0.02 µg/mL
CCc1c(Cc2ccccc2)nc(SCC(=O)c2ccc(OC)cc2)[nH]c1=O |  | C8166 |  |  | 0.04828 µM
Nc1ccn([C@@H]2OC[C@H](CO)[C@H]2O)c(=O)n1 |  | MT-4 |  |  | >100 µM
NC(=O)c1cnn([C@@H]2C=C(CO)[C@@H](O)[C@H]2O)c1 | LAI | PBMC |  |  | 24 µM
O=C(N[C@H]1c2ccccc2C[C@H]1O)[C@H](Cc1ccccc1)C[C@H](O)CN1C(=O)N(Cc2cccnc2)C[C@@H]1Cc1ccccc1 |  | MT-4 + MT4 |  |  | 2.2–10 µM
COC(=O)c1ccc(C(O)c2ccccc2NC(=O)c2ccccc2OC)cc1 | LAI | H9 |  |  | >100 µM
Cc1cccnc1[C@H]1C[C@H](O)[C@@H](CO)O1 |  | MT-4 |  |  | >200 µg/mL
COCc1nc(Nc2ccc(C#N)cc2)nc(Nc2c(C)cc(/C=C/C#N)cc2C)c1C(=O)NCc1ccncc1 | L1001+K103N | MT4 CMV-EGFP |  |  | 0.0372 µM
Nc1nc(F)nc2c1ncn2[C@@H]1O[C@H](CO)C[C@@H]1F | IIIB | CEM |  |  | 1.2 µg/mL
C=C(C)[C@@H]1CC[C@]2(C(=O)O)CC[C@]3(C)[C@H](CC[C@@H]4[C@@]5(C)CC[C@H](OC(=O)CCC(=O)OC[C@H]6OC(n7cc(C)c(=O)[nH]c7=O)C[C@@H]6N=[N+]=[N-])C(C)(C)[C@@H]5CC[C@]43C)[C@@H]12 | IIIB | MT-4 |  |  | 0.015 µM
COC(=O)C(=O)N1CCC[C@H]1C(=O)N[C@H](Cc1ccccc1)C(=O)N[C@H](C)C(=O)Nc1ccc(OCC(=O)N[C@@H](CC(N)=O)C(=O)N[C@@H](Cc2ccccc2)[C@H](O)C(=O)N2CCC[C@H]2C(=O)NC(C)(C)C)cc1 |  |  |  |  | >100 µg/mL
COC(=O)[C@@H](C)NP(=O)(OC[C@@H]1C=C[C@H](n2cc(C)c(=O)[nH]c2=O)O1)Oc1ccccc1 | IIIB | CEM + CEM/0 |  |  | 3 µM
COc1ccc(C(=O)CSc2nc(CC3CCCCC3)c(C)c(=O)[nH]2)cc1 |  | C8166 |  |  | 1.06 µM
COCc1nc(Nc2ccc(C#N)cc2)nc(Nc2c(C)cc(/C=C/C#N)cc2C)c1C(=O)NCCN(C)C | K103N+Y101C | MT4 CMV-EGFP |  |  | 0.0851 µM
CCOC(=O)/C=C/c1ccc(OC(=O)CCC(=O)Oc2c(C)c(C)c3c(c2C)CC[C@@](C)(CCC[C@H](C)CCC[C@H](C)CCCC(C)C)O3)cc1 | BaL | Macrophage + Monocytes/macrophages |  |  | ~10 µM
COCc1nc(Nc2ccc(C#N)cc2)nc(Nc2c(C)cc(/C=C/C#N)cc2C)c1C(=O)N(C)CCN(C)C | K103N+Y101C | MT4 CMV-EGFP |  |  | 0.525 µM
CCCCC1(CCc2cccc(NS(=O)(=O)c3ccc(C#N)cn3)c2)COC(=O)C(C(CC)c2cccc(NS(=O)(=O)c3ccc(C#N)cn3)c2)=C1O | IIIB | MT-4 |  |  | 11.6 µM
C#C[C@]1(COC(=O)C(C)CCCCC)O[C@@H](n2cnc3c(N)nc(F)nc32)C[C@@H]1O | NL4-3 | U373-CD4-CXCR4 | pseudotyped | M184V | 0.007 µM
CC(=O)Oc1ccccc1COP(=O)(OCc1ccccc1OC(C)=O)OC[C@@H]1C=C[C@H](n2cc(C)c(=O)[nH]c2=O)O1 |  | CEM |  |  | 0.12 µM
Cc1cccc(-c2ccc(CO)o2)n1 |  | MT-4 |  |  | >100 µg/mL
COCc1nc(Nc2ccc(C#N)cc2)nc(Nc2c(C)cc(/C=C/C#N)cc2C)c1C(=O)NCCc1cccs1 | L1001+K103N | MT4 CMV-EGFP |  |  | 0.214 µM
C=C(C)[C@@H]1CC[C@]2(C(=O)OC[C@@H]3OC(n4ccc(N(C(=O)OCC)C(=O)OCC)nc4=O)CS3)CC[C@]3(C)[C@H](CC[C@@H]4[C@@]5(C)CC[C@H](O)C(C)(C)[C@@H]5CC[C@]43C)[C@@H]12 | IIIB | MT-4 |  |  | 5 µM
Cc1ccc(NC(=S)N/N=C2\CC(C)CCC2C(C)C)cc1 | IIIB | MT-4 |  |  | >2.6 µg/mL
CC(C)(C)NC(=O)[C@@H]1C[C@@H]2CCCC[C@@H]2CN1C[C@@H](O)[C@H](CSc1ccc2ccccc2c1)NC(=O)[C@H](CC(N)=O)NC(=O)c1ccc2ccccc2n1 |  | CEM + CEM-SS |  |  | <0.0014 µM
CCCOc1nc(N)nc2c1ncn2[C@@H]1C=C[C@H](CO)C1 |  | CEM |  |  | 2.2 µM
C#C[C@]1(COC(=O)CCCCCCCCC)O[C@@H](n2cnc3c(N)nc(F)nc32)C[C@@H]1O | NL4-3 | U373-CD4-CXCR4 | pseudotyped | M184V | 0.014 µM
Nc1nc(=O)n([C@@H]2CC[C@H](CO)O2)cc1F |  | CEM + CEM-SS |  |  | 0.032 µM
Nc1nc2c(ncn2C2[C@H](CO)[C@H]2CO)c(=O)[nH]1 |  | MT-2 |  |  | >100 µg/mL
C#C[C@]1(COC(=O)CCC)O[C@@H](n2cnc3c(N)nc(F)nc32)C[C@@H]1O | NL4-3 | U373-CD4-CXCR4 | pseudotyped | M184V | 0.026 µM
Cc1cn([C@H]2C=C[C@@H](CO)O2)c(=O)[nH]c1=O |  | CEM |  |  | 0.33 µM
CC(C)(C)NC(=O)[C@@H]1CCCN1C(=O)[C@@H](O)[C@H](Cc1ccccc1)NC(=O)[C@H](CC(N)=O)NC(=O)OCc1ccccc1 |  |  |  |  | <1 µg/mL
Cc1ccc(C2=C[C@H](O)[C@@H](CO)O2)nc1 |  | MT-4 |  |  | 16 µg/mL
CCCCC1(CCc2cccc(NS(=O)(=O)c3ccc(C)cc3)c2)COC(=O)C(C(CC)c2cccc(NS(=O)(=O)c3ccc(C)cc3)c2)=C1O | IIIB | MT-4 |  |  | >66.6 µM
O=C(C(=O)N1CCN(C(=O)c2ccccc2)CC1)c1c[nH]c2cccc(F)c12 | NL4-3 | MT-2 |  |  | 0.0308 µM
CC(C)(C)NC(=O)[C@@H]1CCCN1C(=O)[C@@H](O)[C@H](Cc1ccccc1)NC(=O)[C@H](CC(N)=O)NC(=O)COc1cccc([N+](=O)[O-])c1 |  |  |  |  | 6–10 µg/mL
NC(=O)[C@@H](N)Cc1ccccc1 | IIIB | CEM |  |  | 500 µM
Nc1ncnc2c1ccn2[C@H]1C[C@@H](O)[C@H](O)[C@@H]1O | IIIB | CEM |  |  | >250 µg/mL
O=C(O)[C@@H]1CCCN1 | IIIB | CEM |  |  | 500 µM
COC(=O)C(=O)N1CCC[C@H]1C(=O)N[C@@H](Cc1ccccc1)C(=O)Nc1cccc(OCC(=O)N[C@@H](CC(N)=O)C(=O)N[C@@H](Cc2ccccc2)[C@H](O)C(=O)N2CCC[C@H]2C(=O)NC(C)(C)C)c1 |  |  |  |  | 100 µg/mL
Cc1cn([C@H]2C[C@@H](OCCP(=O)(O)O)CO2)c(=O)[nH]c1=O |  | MT-4 |  |  | 140 µM
C#C[C@]1(COC(=O)CCCCCCCCCCCCCC)O[C@@H](n2cnc3c(N)nc(F)nc32)C[C@@H]1O | NL4-3 | U373-CD4-CXCR4 | pseudotyped | M184V | 0.011 µM
COc1cc(CN2C[C@H](Cc3ccccc3)N(C[C@@H](O)C[C@@H](Cc3ccccc3)C(=O)N[C@H]3c4ccccc4C[C@H]3O)C2=O)cc(OC)c1OC |  | MT-4 + MT4 |  |  | 2.2–10 µM
Nc1ccn([C@H]2CC[C@@H](CO)O2)c(=O)n1 |  | CEM + CEM-SS |  |  | 0.03 µM
c1ccc(CNCc2ccc(CN3CCCNCCNCCCNCC3)cc2)nc1 | IIIB |  |  |  | 0.001–0.01 µg/mL
COc1ccc(NC(=S)N/N=C2\CC(C)CCC2C(C)C)cc1 | IIIB | MT-4 |  |  | >84.6 µg/mL
C#C[C@]1(COC(=O)CC)O[C@@H](n2cnc3c(N)nc(F)nc32)C[C@@H]1O | NL4-3 | U373-CD4-CXCR4 | pseudotyped | M184V | 0.039 µM
Cc1cccc(C2=C[C@H](O)[C@@H](CO)O2)n1 |  | MT-4 |  |  | 7 µg/mL

8 of the rows above, restated:

compound | strain or isolate | cells | setting | mutations | value
COCc1nc(Nc2ccc(C#N)cc2)nc(Nc2c(C)cc(/C=C/C#N)cc2C)c1C(=O)N1CCCC(C(N)=O)C1 | L1001+K103N | MT4 CMV-EGFP |  |  | 0.603 µM
CCOC(=O)/C=C/c1ccc(OC(=O)CCC(=O)Oc2c(C)c(C)c3c(c2C)CC[C@@](C)(CCC[C@H](C)CCC[C@H](C)CCCC(C)C)O3)cc1 | BaL | Macrophage + Monocytes/macrophages |  |  | ~10 µM
Cc1cn([C@H]2C[C@@H](OCCP(=O)(O)O)CO2)c(=O)[nH]c1=O |  | MT-4 |  |  | 140 µM
Cc1cn([C@H]2C=C[C@@H](CO)O2)c(=O)[nH]c1=O |  | CEM |  |  | 0.33 µM
C#C[C@]1(COC(=O)CCC)O[C@@H](n2cnc3c(N)nc(F)nc32)C[C@@H]1O | NL4-3 | U373-CD4-CXCR4 | pseudotyped | M184V | 0.026 µM
Nc1nc(F)nc2c1ncn2[C@@H]1O[C@H](CO)C[C@@H]1F | IIIB | CEM |  |  | 1.2 µg/mL
COCc1nc(Nc2ccc(C#N)cc2)nc(Nc2c(C)cc(/C=C/C#N)cc2C)c1C(=O)NCCc1cccs1 | L1001+K103N | MT4 CMV-EGFP |  |  | 0.214 µM
Cc1cccc(-c2ccc(CO)o2)n1 |  | MT-4 |  |  | >100 µg/mL